Anti-infective test results gathered from many reports (values: NIAID ChemDB through PubChem).

All rows: enzyme or target tests; species: HIV-1; protein: Protease

ICn is the concentration giving n% inhibition. Conditions beyond the fields shown may differ between rows. Blank or dashed fields: not listed here.

compound	mutations	method	setting	strain	measure	result
CC(C)(C)[C@H](NC(=O)OCCc1nc2ccccc2[nH]1)C(=O)N[C@@H](Cc1ccccc1)[C@H](O)[C@@H](CO)[C@H](Cc1ccccc1)NC(=O)[C@@H](NC(=O)OCCc1nc2ccccc2[nH]1)C(C)(C)C	-	-	-	-	Ki	0.027 µM
O=[N+]([O-])[O][Pb][O][N+](=O)[O-]	-	fluorescence	-	SF2	IC50	18 µM
CC(C)C[C@H](NC(=O)[C@@H](N)CO)C(=O)N[C@@H](CC(N)=O)C(=O)N[C@@H](Cc1ccccc1)B(O)O	PR-M46I V82F I84V L90M	HPLC	-	-	Ki	46 µM
CC(C)(C)[C@H](NC(=O)OCCc1nc2ccccc2[nH]1)C(=O)N[C@@H](Cc1ccccc1)[C@@H](O)[C@H](CO)[C@H](Cc1ccccc1)NC(=O)[C@@H](NC(=O)OCCc1nc2ccccc2[nH]1)C(C)(C)C	-	-	-	-	Ki	0.43 µM
CC(C)(C)OC(=O)N[C@@H](Cc1ccccc1)[C@H](O)CNC[C@@H](O)[C@H](Cc1ccccc1)NC(=O)C(NC(=O)OCc1ccccc1)C(C)(C)O	-	HPLC	pH 5.5	-	IC50	<10 µM
Cc1ccc(C(=O)NCc2ccccc2)cc1C(=O)N[C@@H](Cc1ccccc1)[C@@H](O)CN1C[C@H]2CCCC[C@H]2C[C@H]1C(=O)NC(C)(C)C	-	fluorescence	-	-	IC50	0.278 µg/mL
CC(C)(CO)OC(=O)N[C@@H](Cc1ccccc1)[C@@H](O)C[C@@H](Cc1ccc(OCCN2CCOCC2)cc1)C(=O)N[C@H]1c2ccccc2C[C@H]1O	-	HPLC	-	-	IC50	~0.0025 µg/mL
CC(C)[C@H](NC(=O)OCc1ccccc1)C(=O)N[C@@H](Cc1ccccc1)[C@H](O)[C@@H](CO)[C@H](Cc1ccccc1)NC(=O)OC(C)(C)C	-	-	-	-	Ki	0.0004 µM
COC(=O)[C@@H](NC(=O)[C@@H](NC(=O)[C@H](Cc1ccccc1)CC(O)C[C@@H](Cc1ccccc1)C(=O)N[C@H](C(=O)N[C@H](C(=O)OC)C(C)C)C(C)C)C(C)C)C(C)C	-	-	-	-	IC50	0.005 µM
CC(C)(C)[C@H](NC(=O)OCc1nc2ccccc2[nH]1)C(=O)N[C@@H](Cc1ccccc1)[C@@H](O)[C@H](CO)[C@H](Cc1ccccc1)NC(=O)[C@@H](NC(=O)OCc1nc2ccccc2[nH]1)C(C)(C)C	-	-	-	-	Ki	0.29 µM
[Cl][Pt-2]([Cl])([Cl])[Cl].[K+].[K+]	-	fluorescence	-	SF2	IC50	>1000 µM
C/C=C(/C)C(=O)O[C@H]1[C@H](O)[C@]2(COC(C)=O)[C@H](O)C[C@]3(C)C(=CC[C@@H]4[C@@]5(C)CC[C@H](O[C@@H]6O[C@H](C(=O)O)[C@@H](O[C@@H]7O[C@H](CO)[C@@H](O)[C@H](O)[C@H]7O)[C@H](O)[C@H]6O[C@@H]6O[C@H](CO)[C@@H](O)[C@H](O)[C@H]6O)[C@](C)(CO)[C@@H]5CC[C@]43C)[C@@H]2CC1(C)C	-	HPLC	-	-	IC50	>100 µM
CC(C)[C@H](NC(=O)N(C)Cc1ccccn1)C(=O)N[C@@H](Cc1ccccc1)[C@H](O)[C@H](O)[C@H](Cc1ccccc1)NC(=O)[C@@H](NC(=O)N(C)Cc1ccccn1)C(C)C	-	HPLC	-	-	IC50	0.0012 µM
O=c1cc(-c2ccc(O)cc2)oc2cc(O)c(O)c(O)c12	-	fluorescence	-	-	IC50	58.8 µM
COC(=O)[C@H]([C@@H](O)[C@H](Cc1ccccc1)NC(=O)[C@@H](NC(=O)OCc1ccccc1)C(C)C)[C@H](Cc1ccccc1)NC(=O)OC(C)(C)C	-	-	-	-	Ki	0.112 µM
C=CC(C)(C)c1c(O)ccc2c(=O)c3c(O)c(CC=C(C)C)c(OC)c(O)c3oc12	-	substrate cleavage	-	-	IC50	11.3 µg/mL
CC(C)[C@H](NC(=O)CCc1c[nH]c2ccccc12)C(=O)N[C@@H](Cc1ccccc1)[C@H](O)CNC[C@@H](O)[C@H](Cc1ccccc1)NC(=O)OC(C)(C)C	-	HPLC	pH 5.5	-	IC50	<10 µM
COC(=O)CCCC[C@H]1[C@@H]2[C@H](CS1(=O)=O)N(Cc1cccc(Br)c1)C(=O)N2Cc1cccc(Br)c1	-	-	-	-	Ki	4.1 µM
CC(C)C[C@H](NC(=O)OCc1ccccc1)C(=O)N[C@@H](CC(N)=O)C(=O)NC(Cc1ccccc1)C(O)C(Cc1ccccc1)NC(=O)OC(C)(C)C	-	fluorescence	-	-	IC50	<0.1 µM
CC(C)CN(C[C@@H](O)[C@H](Cc1ccccc1)NC(=O)[C@H](CC(N)=O)NC(=O)c1ccc2ccccc2n1)C(=O)NC(C)(C)C	PR-A71T V82A	HPLC	-	-	IC50	0.0034 µM
C[C@@H]1O[C@@H](OC[C@H]2O[C@@H](Oc3c(-c4ccc(O)cc4)oc4cc(O[C@@H]5O[C@@H](C)[C@H](O)[C@@H](O)[C@H]5O)cc(O)c4c3=O)[C@H](O)[C@@H](O)[C@H]2O)[C@H](O)[C@H](O)[C@H]1O	-	fluorescence	-	-	IC50	<50 µg/mL
CC(C)C(NC(=O)[C@@H](NC(=O)OCc1ccccc1)C(C)C)C(F)(F)C(=O)C(CC1CCCCC1)NC(=O)[C@@H](NC(=O)OCc1ccccc1)C(C)C	-	fluorescence	-	-	IC50	<0.001 µM
CSC[C@H](NC(=O)COc1cccc2cnccc12)C(=O)N[C@@H](Cc1ccccc1)[C@H](O)C(=O)N1CSC(C)(C)[C@H]1C(=O)NC(C)(C)C	-	-	-	-	Ki	0.0000023 µM
CC(C)[C@H](NC(=O)c1ccc2ccccc2n1)C(=O)N[C@@H](Cc1ccccc1)[C@H](O)CN1CC[C@@H](OCc2ccncc2)C[C@H]1C(=O)NC(C)(C)C	-	substrate cleavage / HPLC	-	-	IC50	0.004 µM
CCC(c1ccccc1)c1c(O)c2ccccc2oc1=O	-	fluorescence	-	-	Ki	1 µM
CC(C)[C@@H](C(=O)N[C@@H](Cc1ccccc1)C[C@H](O)[C@H](Cc1ccccc1)NC(=O)OCc1cncs1)N1CCCNC1=O	-	fluorescence	-	-	IC50	<0.0005 µM
CC(C)CCCC(C)CCN1C(=O)N(CCC(C)CCCC(C)C)[C@H](Cc2ccccc2)[C@H](O)[C@@H](O)C1Cc1ccccc1	-	-	-	-	Ki	0.15 µM
CC(C)[C@H](NC(=O)OCCN1CCOCC1)C(=O)N[C@@H](Cc1ccccc1)[C@@H](O)[C@H](Cc1ccccc1)NC(=O)[C@@H](NC(=O)OCc1ccccc1)C(C)C	-	fluorescence	-	-	IC50	>0.005 µM
Cc1c(C(=O)N[C@@H](Cc2ccccc2)[C@@H](O)Cc2ccccc2C(=O)NC(C)(C)C)cccc1C(=O)N1CCc2ccccc2C1	-	fluorescence	-	-	IC50	1 µg/mL
CC(C)(C)OC(=O)N[C@@H](Cc1ccccc1)[C@H](O)CNC[C@@H](O)[C@H](Cc1ccccc1)NC(=O)C(O)C(F)(F)F	-	HPLC	pH 5.5	-	IC50	<10 µM
CC(C)(C)NC(=O)c1ccccc1C[C@@H](O)[C@H](CSc1ccc2ccccc2c1)NC(=O)[C@H](CC(N)=O)NC(=O)Oc1ccc2ccccc2n1	-	-	-	-	Ki	0.51 µM
CN(C(=O)OC(C)(C)C)[C@@H](Cc1ccccc1)[C@H](O)CNC[C@@H](O)[C@H](Cc1ccccc1)NC(=O)OC(C)(C)C	-	HPLC	pH 5.5	-	IC50	10 µM
Cc1ccc(C(=O)N(C)C)cc1C(=O)N[C@@H](Cc1ccccc1)[C@@H](O)CN1C[C@H]2CCCC[C@H]2C[C@H]1C(=O)NC(C)(C)C	-	fluorescence	-	-	IC50	0.185 µg/mL
CC(C)(C)OC(=O)[C@@H]1CCCN1C(=O)[C@@H](O)[C@H](Cc1ccccc1)NC(=O)[C@H](CC(N)=O)NC(=O)c1ccc2ccccc2n1	-	HPLC	-	IIIB	Ki	0.036 µM
C/C=C(/C)C(=O)OC[C@@]12[C@H](O)C[C@]3(C)C(=CC[C@@H]4[C@@]5(C)CC[C@H](O[C@@H]6O[C@H](C(=O)O)[C@@H](O[C@@H]7O[C@H](CO)[C@@H](O)[C@H](O)[C@H]7O)[C@H](O)[C@H]6O[C@@H]6O[C@H](CO)[C@@H](O)[C@H](O)[C@H]6O)[C@](C)(CO)[C@@H]5CC[C@]43C)[C@@H]1CC(C)(C)[C@@H](O)[C@@H]2O	-	HPLC	-	-	IC50	>100 µM
CC(C)(C)OC(=O)N[C@@H](Cc1ccccc1)[C@H](O)[C@H](O)[C@H](Cc1ccccc1)NC(=O)OC(C)(C)C	-	fluorescence	-	-	IC50	>0.01 µM
CC(C)[C@H](NC(=O)c1ccc2ccccc2n1)C(=O)N[C@@H](Cc1ccccc1)[C@H](O)C(=O)N1[C@H](C(=O)NC(C)(C)C)C[C@@H]2CCCC[C@@H]21	-	substrate cleavage	-	BRU	IC50	0.03 µM
CC(C)[C@H](NC(=O)N(C)Cc1ccccn1)C(=O)N[C@@H](Cc1ccccc1)[C@H](O)CNC[C@@H](O)[C@H](Cc1ccccc1)NC(=O)OC(C)(C)C	-	HPLC	pH 5.5	-	IC50	<10 µM
CCc1ccc(C(=O)N[C@@H](Cc2ccccc2)[C@@H](O)Cc2ccccc2C(=O)NC(C)(C)C)cc1C(=O)N1CCc2ccccc2C1	-	fluorescence	-	-	IC50	0.035 µg/mL
O=C1N[C@H](Cc2ccccc2)[C@H](O)[C@@H](O)[C@@H](Cc2ccccc2)N1	-	-	-	-	Ki	3 µM
CC(C)CN(C[C@@H](O)[C@H](Cc1ccccc1)NC(=O)[C@@H](NC(=O)CNCc1cccc(F)c1)C(C)(C)C)S(=O)(=O)c1cccc(N)c1	-	fluorescence	-	-	Ki	0.000012 µM
CC(C)(C)OC(=O)N[C@@H](Cc1ccccc1)[C@H](O)CNC[C@H](O)[C@H](Cc1ccccc1)NC(=O)OC(C)(C)C	-	HPLC	pH 5.5	-	IC50	>10 µM
Cc1ccc(C(=O)N(C)Cc2ccc(F)cc2)cc1C(=O)N[C@@H](Cc1ccccc1)[C@@H](O)CN1C[C@H]2CCCC[C@H]2C[C@H]1C(=O)NC(C)(C)C	-	fluorescence	-	-	IC50	0.0053 µg/mL
CC(C)(C)NC(=O)[C@@H]1C[C@@H]2CCC[C@@H]2N1C(=O)[C@@H](O)[C@H](Cc1ccccc1)NC(=O)[C@H](CC(N)=O)NC(=O)OCc1ccccc1	-	substrate cleavage	-	BRU	IC50	0.0023 µM
CC(C)C[C@H](NC(=O)[C@H](Cc1ccccc1)C[C@@H](O)[C@H](Cc1ccccc1)NC(=O)OC(C)(C)C)C(=O)N[C@@H](Cc1ccccc1)C(N)=O	-	fluorescence	-	-	IC50	1 µM
CC(C)[C@H](NC(=O)OCc1ccccc1)C(=O)NC(Cc1ccccc1)C(O)C(Cc1ccccc1)NC(=O)[C@@H](NC(=O)OCc1ccccc1)C(C)C	-	fluorescence	-	-	IC50	<0.01 µM
CC(=O)N[C@@H](CO)C(=O)N[C@@H](CC(C)C)C(=O)N[C@@H](CC(N)=O)C(=O)N[C@@H](Cc1ccccc1)B(O)O	PR-M46I V82F I84V L90M	HPLC	-	-	Ki	150 µM
Cc1ccc(C(=O)C2NCCc3ccccc32)cc1C(=O)N[C@@H](Cc1ccccc1)[C@@H](O)CN1C[C@H]2CCCC[C@H]2C[C@H]1C(=O)NC(C)(C)C	-	fluorescence	-	-	IC50	0.0027 µg/mL
O=C1CC(O)(Cc2ccccc2)C(O)C(O)(Cc2ccccc2)C1	-	-	-	-	Ki	<25 µM
CC(C)(C)OC(=O)[C@@H]1CCCN1C(=O)[C@@H](O)[C@H](Cc1ccccc1)NC(=O)[C@H](CC(N)=O)NC(=O)c1cnc2ccccc2n1	-	HPLC	-	IIIB	Ki	0.045 µM
CCC(C1=C(O)CC2(CCCCCCC2)OC1=O)c1ccccc1	-	fluorescence	-	-	IC50	>3 µM
CC(C)NCC(=O)N(CC(=O)N(Cc1ccccc1)CC(O)CN(Cc1ccccc1)C(=O)CN(C(=O)CNC(C)C)C(C)C)C(C)C	-	-	-	-	IC50	10 µM
CC(C)(C)NC(=O)[C@@H]1C[C@@H]2CCCC[C@@H]2N1C(=O)[C@@H](O)[C@H](Cc1ccccc1)NC(=O)[C@H](CC(N)=O)NC(=O)c1ccc2ccccc2n1	-	substrate cleavage	-	BRU	IC50	0.0013 µM
O=C1N(Cc2cccc(Br)c2)[C@H]2[C@H](CS(=O)(=O)[C@H]2CCCCCO)N1Cc1cccc(Br)c1	-	HPLC	-	-	Ki	6.9 µM
COC(=O)[C@@H](NC(=O)[C@@H](NC(=O)[C@@H](Cc1ccccc1)NC(=O)N[C@H](Cc1ccccc1)NC(=O)[C@H](C)NC(=O)[C@H](C)N)C(C)C)C(C)C	-	fluorescence	-	-	IC50	47 µM
C/C=C(\C)C(=O)O[C@H]1[C@H](O)[C@]2(COC(C)=O)[C@H](O)C[C@]3(C)C(=CC[C@@H]4[C@@]5(C)CC[C@H](O[C@@H]6O[C@H](C(=O)O)[C@@H](O[C@@H]7O[C@H](CO)[C@@H](O)[C@H](O)[C@H]7O)[C@H](O)[C@H]6O[C@@H]6O[C@H](CO)[C@@H](O)[C@H](O)[C@H]6O)[C@](C)(CO)[C@@H]5CC[C@]43C)[C@@H]2CC1(C)C	-	HPLC	-	-	IC50	>100 µM

4 of the rows above, restated:

compound	mutations	method	setting	strain	measure	result
O=[N+]([O-])[O][Pb][O][N+](=O)[O-]	-	fluorescence	-	SF2	IC50	18 µM
CC(C)C[C@H](NC(=O)OCc1ccccc1)C(=O)N[C@@H](CC(N)=O)C(=O)NC(Cc1ccccc1)C(O)C(Cc1ccccc1)NC(=O)OC(C)(C)C	-	fluorescence	-	-	IC50	<0.1 µM
C/C=C(/C)C(=O)OC[C@@]12[C@H](O)C[C@]3(C)C(=CC[C@@H]4[C@@]5(C)CC[C@H](O[C@@H]6O[C@H](C(=O)O)[C@@H](O[C@@H]7O[C@H](CO)[C@@H](O)[C@H](O)[C@H]7O)[C@H](O)[C@H]6O[C@@H]6O[C@H](CO)[C@@H](O)[C@H](O)[C@H]6O)[C@](C)(CO)[C@@H]5CC[C@]43C)[C@@H]1CC(C)(C)[C@@H](O)[C@@H]2O	-	HPLC	-	-	IC50	>100 µM
COC(=O)[C@@H](NC(=O)[C@@H](NC(=O)[C@H](Cc1ccccc1)CC(O)C[C@@H](Cc1ccccc1)C(=O)N[C@H](C(=O)N[C@H](C(=O)OC)C(C)C)C(C)C)C(C)C)C(C)C	-	-	-	-	IC50	0.005 µM